Drawing on paper PMC7802229, “Alkaloid and benzopyran compounds of Melicope latifolia fruit exhibit anti-hepatitis C virus activities” (BMC Complementary Medicine and Therapies, 2021), this text covers SI for four molecules.

Bounds are passed on as bounds.

The test system of this data set is HCV JFH1a. The data set can be described thus: Antiviral activity assay (HCV infection of Huh7it-1 cells, titre by immunostaining). As to conditions: selectivity index from CC50 and IC50; ratio CC50 / IC50. The data set is classed as cell-based, hepatitis C virus (genotype 2a). On the procedure: Hepatocyte cells of Huh7it-1 [18] were cultivated in DMEM-Dulbeco’s Modiffied Eagle Medium (GIBCO Invitrogen). The medium was supplemented with 10% Fetal Bovine Serum (FBS, GIBCO-Invitrogen), 0.15 mg/ml kanamycin solution (SIGMA) and 1x Non-Essential Amino Acids (NEAA, GIBCO-Invitrogen). The cell culture was incubated in 5% CO2 at 37 °C. HCV JFH1a was propagated in Huh7it-1 suspended in 4 ml JFH1 suspension and 4 ml DMEM and was incubated at 37 °C in 5% CO2 for 4 h. The suspension was divided into eight flasks and the supernatant was harvested on the third day. The supernatant was concentrated and examined for its viral titration and stored at − 80 °C [10].
The hepatocyte cells of Huh7it-1 were seeded on a 48 well plate with a cell density of 5.4 × 10^4 and incubated for 24 h. […] The supernatant was removed and washed with medium and placed back into solutions containing the same concentrations of extract. The cultures were then incubated for 48 h and the supernatant was taken to examine the titer infection of the sample by immunostaining.
Viral titration was performed by serially diluting the culture supernatant in DMEM medium and inoculating onto Huh7it-1 cells. After incubation for 41 h, the cells were fixed by 3.7% formaldehyde and permeabilized with 0.5% triton X-100 for 10 min. First antibody (HCV infected serum patient) was used in 1% bovine serum albumin (BSA) /2%BlockIce/ phosphate buffer saline (PBS) with a 300x dilution then incubated for 60 min. Second antibody (HRP-Goat anti human) was used in 1%BSA/2%BlockIce/PBS with a 400x dilution (50 μl/well) and then incubated for 60 min at room temperature. To visualize the infectious foci, 3,3′-diaminobenzidine (DAB) staining (DAB Thermo Scientific, USA) was used for 15 min until a brown color was observed. SPSS probit was used to calculate inhibition concentration 50% (IC50) values.
For the molecule `COc1cc(O)c(C(C)=O)c2c1C=CC(C)(C)O2` [Alloevodionol], the SI is given as above 24.3.
The value for `COc1c2c(c3c(c1C(C)=O)OC(C)(C)C=C3)OC(C)(C)C=C2` [O-methyloktadrenolon] was 5.8; that for `Cn1c(=O)c2c(c3ccccc31)OC(C)(C)C=C2` [N-methylflindersine] was 25.5.
As for `COc1cc2oc(=O)ccc2c2c1C=CC(C)(C)O2` [Alloxanthoxyletin], the SI came to 4.3.
